The values that follow come from paper PMC7038234, “Screening of Natural Extracts for Inhibitors against Japanese Encephalitis Virus Infection” (Antimicrobial Agents and Chemotherapy, 2020).

In the assay the test system is JEV strain AT31. The assay can be described thus: microbe, parasite or virus in culture. To be noted: Japanese encephalitis virus, 24 h, Primary screening of 1034 compounds in the natural extracts library.

Counter-ions that a name gives are not always drawn.

Take `CCOC(=O)C1=C[C@]2(CC)CCCN3CCc4c(n1c1ccccc41)[C@@H]32` [Vinpocetine]: the inhibition at 50 µM came to 34%.
As for `O=c1c2ccccc2nc2n1CCc1c-2[nH]c2ccccc12` [Rutaecarpine], the figure is 58.4%; as for `O=C(O)c1cc(O)c2c(c1)[C@@H]([C@H]1c3cc(C(=O)O)cc(O)c3C(=O)c3c(O[C@@H]4O[C@H](CO)[C@@H](O)[C@H](O)[C@H]4O)cccc31)c1cccc(O[C@@H]3O[C@H](CO)[C@@H](O)[C@H](O)[C@H]3O)c1C2=O` [SennosideB], -11.7%; as for `COc1ccc(-c2oc3c(OC)c(OC)c(OC)c(OC)c3c(=O)c2OC)cc1OC` [3,5,6,7,8,3',4'-Heptamethoxyflavone], 33.5%.
As to `O=C1O[C@H]2[C@@H]3OC(=O)c4cc(O)c(O)c(O)c4-c4c(O)c(O)c5oc(=O)c6c(c(O)c(O)c7oc(=O)c4c5c76)-c4c(cc(O)c(O)c4O)C(=O)OC[C@H]3OC(O)[C@@H]2OC(=O)c2cc(O)c(O)c(O)c2-c2c1cc(O)c(O)c2O` (mixture of isomers) [Punicalagin], the inhibition at 50 µM worked out at 42.6%.
The result for `COc1ccc(-c2cc(=O)c3c(OC)c(OC)c(OC)cc3o2)cc1OC` [Sinensetin] reads 13.9%; that for `COc1cc2oc(=O)ccc2c(OC)c1O` [Fraxinol], 7.4%.
As for `C=C1C(=O)O[C@@]23[C@H]1CC[C@@H](C)[C@@H]2CC[C@@]1(C)O[C@@H]31` [Arteannuin B], the figure is 8.03%; as for `O[C@@H]1[C@@H](O)[C@H](OC/C=C/c2ccccc2)O[C@H](CO[C@@H]2OC[C@H](O)[C@H](O)[C@H]2O)[C@H]1O` [rosavin], 17.2%.
`C=C(C)[C@H]1Cc2c(ccc3c2O[C@@H]2COc4cc(OC)c(OC)cc4[C@@H]2C3=O)O1` [Rotenone]: the inhibition at 50 µM was 50.2%.
The result for `C=CCS[S+]([O-])CC=C` (stereo not shown) [Allicin] reads 39.7%; that for `COc1cc2c3c(c1OC)-c1ccccc1C[C@H]3N(C)CC2` [Nuciferine], -0.167%; that for `CC1=CC(=O)CC(C)(C)C1` [Isophorone], 42.5%.
The result for `O=c1ccc2ccc3occc3c2o1` [Isopsoralen] reads 21%; that for `COc1ccc(C(C)=O)c(O[C@@H]2O[C@H](CO[C@@H]3OC[C@](O)(CO)[C@H]3O)[C@@H](O)[C@H](O)[C@H]2O)c1` [Apiopaeonoside], -4.8%; that for `C[C@@H]1O[C@@H](OC[C@H]2O[C@@H](OCCc3ccc(O)c(O)c3)[C@H](O)[C@@H](O[C@@H]3O[C@@H](C)[C@H](O)[C@@H](O)[C@H]3O)[C@@H]2OC(=O)/C=C/c2ccc(O)c(O)c2)[C@H](O)[C@H](O)[C@H]1O` [Poliumoside], 14.5%.
The result for `COC(=O)C1=CC[C@@]23CC[C@@H]([C@@](C)(/C=C/C=C(\C)C(=O)O)OC2=O)[C@@]3(OC(C)=O)CC1` [Pseudolaric Acid B] reads -1.84%; that for `O=C(CO)[C@@H](O)[C@H](O)[C@H](O)CO` [Fructose], -4.45%; that for `O=c1c(O)c(-c2ccccc2)oc2cc(O)cc(O)c12` [Galangin], 57.4%.
Take `CC(=O)O[C@]12CCC(C)=CC[C@]13CC[C@H]2[C@@](C)(/C=C/C=C(\C)C(=O)O)OC3=O` [Pseudolaric Acid A]: the inhibition at 50 µM was found to be 46.2%.
For `COc1ccc(-c2coc3cc(O)ccc3c2=O)cc1` [Formononetin], the inhibition at 50 µM is -6.97%.
With `C=CCc1ccc(OC)c(OC)c1` [Methyl eugenol], the inhibition at 50 µM is -16%.
The result for `C[C@@]12CC[C@@H]3[C@@](CC[C@H]4[C@@]3(C)CCC[C@@]4(C)C(=O)O)(CC1=O)C2` [iso-Steviol] reads -11.2%; that for `C=C[C@@]12CN(C)[C@H]3C[C@]14C(=Nc1ccccc14)[C@H]1C[C@@H]2[C@@H]3CO1` [Koumine], 98.9%.
The result for `O=C1C=CC[C@@H]2[C@H]3CCCN4CCC[C@@H](CN12)[C@@H]34` [Sophocarpine] reads 7.33%; that for `C=C1C(=O)[C@@]23[C@H](O)C[C@@H]4C(C)(C)C(=O)CC[C@@]4(C)[C@@H]2CC[C@@H]1[C@H]3OC(C)=O` [glaucocalyxin B], 70.4%.
As for `Cc1cc(=O)oc2cc(O)ccc12` [7-Hydroxy-4-methylcoumarin], the figure is 2.48%; as for `C=C1CCC[C@]2(C)C[C@@H]3OC(=O)C(C)=C3C[C@@H]12` [AtractylenolideII], 56%.
For the molecule `O=C1C[C@@H](c2ccc(O)c(O)c2)Oc2cc(O)cc(O)c21` [Eriodictyol], the inhibition at 50 µM was -1.85%.
Regarding `O=C1CCC[C@@H]2[C@H]3CCCN4CCC[C@@H](CN12)[C@@H]34` [matrine], the inhibition at 50 µM is 11.1%.
The result for `COC(=O)c1cc(O)c(O)c(O)c1` [Methyl gallate] reads 14.4%.
The result for `COc1cc2c(c(OC)c1OC)-c1c(cc3c(c1OC)OCO3)C[C@H](C)[C@@](C)(O)C2` [Schisandrol B] reads 24%; that for `O=C1c2ccccc2C(=O)c2c(O)c(O)cc(O)c21` [Purpurin], 11.9%.
In the case of `COc1ccc(/C=C/c2cc(O)cc(O)c2)cc1O` [Rhapontigenin], the inhibition at 50 µM was 5.65%.
The result for `COc1cc(/C=C/CO)cc(OC)c1O[C@@H]1O[C@H](CO)[C@@H](O)[C@H](O)[C@H]1O` [Syringin] reads 1.9%; that for `C=C1CCC[C@]2(C)C[C@]3(O)OC(=O)C(C)=C3C[C@@H]12` [AtractylenolideIII], 7.63%.
Take `C=C(C)[C@@H]1CC[C@]2(C)CC[C@]3(C)[C@H](CC[C@@H]4[C@@]5(C)CC[C@H](O)C(C)(C)[C@@H]5CC[C@]43C)[C@@H]12` [Lupeol]: the inhibition at 50 µM was 31.3%.
As for `COc1cc([C@@H]2[C@H]3CO[C@@]4(O)C(=O)[C@@H]2C=C([C@H]2Oc5cc(O)cc(O)c5C(=O)[C@@H]2O)[C@@H]34)ccc1O` [Silidianin], the figure is 10%; as for `C[C@H]1[C@H](OC(=O)CCC(=O)O)O[C@@H]2O[C@@]3(C)CC[C@H]4[C@H](C)CC[C@@H]1[C@@]24OO3` [Artesunate], 14.2%.
With `COc1cc(O)c2c(=O)c(-c3ccc(O)cc3)coc2c1` [Prunetin], the inhibition at 50 µM is 22%.
As for `COc1cc2c(cc1OC)-c1cc3ccc(OC)c(OC)c3c[n+]1CC2` [Palmatine chloride], the figure is -9.32%; as for `COc1ccc(C=O)cc1O` [Isovanillin], 19.6%; as for `C[C@@H]1[C@H]2c3cc4c(cc3O[C@@]35OCOC3=CC(=O)[C@H](C[C@H]1C)[C@@H]25)OCO4` [Sauchinone], 41.8%.
`OCCc1ccc(O)c(O)c1` [Hydroxytyrosol]: the inhibition at 50 µM was found to be 18%.
As for `CC[C@H]1CN2CCc3cc(OC)c(OC)cc3[C@@H]2C[C@@H]1C[C@H]1NCCc2cc(OC)c(OC)cc21` [Emetine hydrochloride], the figure is 12.7%; as for `C[C@@H]1O[C@@H](Oc2c(-c3ccc(O)c(O)c3)oc3cc(O)cc(O)c3c2=O)[C@H](O)[C@H](O)[C@H]1O` [Quercitrin], 1.23%.
As for `COc1cc([C@@H]2c3cc4c(cc3[C@H](O)[C@H]3COC(=O)[C@H]23)OCO4)cc(OC)c1OC` [Podophyllotoxin], the figure is -12.3%; as for `CC[C@H]1CN2CC[C@]3(C(=O)Nc4ccccc43)[C@@H]2C[C@@H]1/C(=C\OC)C(=O)OC` [rhynchophylline], 16.5%; as for `COc1cc([C@@H]2c3cc4c(cc3[C@H](O)[C@H]3COC(=O)[C@@H]23)OCO4)cc(OC)c1OC` [Picropodophyllin], -10.8%.
Consider `COc1cc(C(=O)O[C@H]2[C@@H]3C=CO[C@@H](O[C@@H]4O[C@H](CO)[C@@H](O)[C@H](O)[C@H]4O)[C@@H]3[C@@]3(CO)O[C@@H]23)ccc1O` [Picroside II], for which the inhibition at 50 µM was -0.395%.
As for `C/C1=C\CC[C@]23O[C@H]2[C@@H](OC3=O)c2c(C)coc2C1` [Linderane], the figure is 16.3%.
As for `COc1c(O[C@@H]2O[C@H](CO)[C@@H](O)[C@H](O)[C@H]2O)cc2c(c1OC)-c1ccc(SC)c(=O)cc1[C@@H](NC(C)=O)CC2` [Thiocolchicoside], the figure is 47.1%; as for `CC[C@H](CC[C@@H](C)[C@H]1CC[C@H]2[C@@H]3CC=C4C[C@@H](O)CC[C@]4(C)[C@H]3CC[C@]12C)C(C)C` [β-Sitosterol], 13%; as for `COC(=O)C1=CO[C@@H](C)[C@@H]2CN3CCc4c([nH]c5ccccc45)[C@@H]3C[C@H]12` [Tetrahydroalstonine], -10.9%.
The result for `CCOC(=O)c1cc(O)c(O)c(O)c1` [Ethyl gallate] reads 9.31%; that for `O=c1cc(-c2ccc(O)c(O)c2)oc2cc(O)cc(O)c12` [luteolin], 19.3%; that for `COc1cc(-c2coc3cc(O)c(OC)c(O)c3c2=O)cc(O)c1OC` [irigenin], 85.6%.
With `CC1(C)C=Cc2c(ccc3c2OC[C@@H](c2ccc(O)cc2O)C3)O1` [Glabridin], the inhibition at 50 µM was -2.9%.
The result for `COc1ccc2c(c1O)-c1c(O)c(OC)cc3c1[C@H](C2)[N+](C)(C)CC3` [magnoflorine] reads -3.88%; that for `OC[C@H]1O[C@H](O[C@H]2O[C@H](CO)[C@@H](O)[C@H](O)[C@H]2O)[C@H](O)[C@@H](O)[C@@H]1O` [Trehalose], 1.7%.
As for `C1C2CC3CC1CC(C2)C3` [Adamantane], the figure is -11.2%.
The result for `CC(C)=CCC/C(C)=C/COc1ccc2ccc(=O)oc2c1` [Auraptene] reads 15.7%.
Turning to `CC[C@]1(O)C[C@@H]2CN(CCc3c([nH]c4ccccc34)[C@@](C(=O)OC)(c3cc4c(cc3OC)N(C)[C@H]3[C@@](O)(C(=O)OC)[C@H](OC(C)=O)[C@]5(CC)C=CCN6CC[C@]43[C@@H]65)C2)C1` [Vinblastine sulfate], the inhibition at 50 µM worked out at 62.3%.
As for `O=C(/C=C/c1ccc(O)cc1)OC[C@H]1O[C@@H](Oc2c(-c3ccc(O)cc3)oc3cc(O)cc(O)c3c2=O)[C@H](O)[C@@H](O)[C@@H]1O` [Tiliroside], the figure is -2.58%.

As a reminder, the inhibition is the drop in the measured response relative to a control, in per cent.
